Patent publication US12559545 (VANDERBILT UNIVERSITY, dated 2026)

Biological target: NiVB-G (Nipah virus, strain Bangladesh)
Assay: ELISA [panel B]

B1: HENV-222 (antibody, V domains shown)
VH: QVQLQESGPGLVKPSETLSLTCTVSGGSIDSYYWSWIRQPAGKGLEWIGRIYPSGTTNYNPSLKSRVTMSVDTSKNQFSLKVTSVTAADTAVYYCARMQTGFGSSLFFVPYFDNWGQGTLVTVSS
VL: EIVLTQSPATLSLSPGERATLSCRASQSVSSYLAWYQQKPGQAPRLLIYDASNRATGIPARFSGSGSGTDFTLTISSLEPEDFAVYYCQQRGNWPLTFGGGTKVEIK
B1 gave an EC50 of 5.8 nM.
